Read-outs that look alike come from different tables or passages of the source.
Experiments:
αHL-(M113F/K147N)7·βCD = αHL-(M113F/K147N)7·βCD (Staphylococcus aureus, UniProt P09616, K173N/M139F)
αHL-(M113F/K147N)7 pore = αHL-(M113F/K147N)7 pore (Staphylococcus aureus, UniProt P09616, K173N/M139F)
αHL (M113N)7 pore [1] = target: T1, αHL (M113N)7 pore (Staphylococcus aureus, UniProt P09616, M139N); conditions: for association rate constant kon / dissociation rate constant koff: n=3
αHL (M113N)7 pore [2] = target: T1, αHL (M113N)7 pore; conditions: cited from earlier work
WT1(M113N)6 pore = WT1(M113N)6 pore (Staphylococcus aureus, UniProt P09616, M139N)
[3] = linear fit ln Kf versus 1/T, n=4

O=C(O)C12CC3CC(CC(C3)C1)C2
Kf (Kf=kon/koff) (αHL-(M113F/K147N)7·βCD; 22° C.): 1.2±0.1×10^4 M^−1 | increase of koff (αHL-(M113F/K147N)7·βCD; 22° C. to 78° C.): 43 fold | increase of kon (αHL-(M113F/K147N)7·βCD; 22° C. to 78° C.): 6 fold | kon (αHL-(M113F/K147N)7·βCD; 22° C., −60 mV, n=3): 2.5±0.2×10^6 M^−1 s^−1 | ΔG° (αHL-(M113F/K147N)7·βCD; 25° C., n=3): -5.5 ± 0.48 kcal/mol | Kf (Kf=kon/koff) (αHL-(M113F/K147N)7·βCD; 78° C.): 1.5±0.1×10^3 M^−1 | koff (αHL-(M113F/K147N)7·βCD; 78° C., −60 mV, n=3): 9.3±0.6×10^3 s^−1 | kon (αHL-(M113F/K147N)7·βCD; 78° C., −60 mV, n=3): 1.4±0.1×10^7 M^−1 s^−1 | ΔH° (αHL-(M113F/K147N)7·βCD; plot of ln Kf versus 1/T, n=3): -7.41 ± 0.48 kcal/mol | ΔS° (αHL-(M113F/K147N)7·βCD; plot of ln Kf versus 1/T, n=3): −28±1 J mol^−1 K^−1

β-cyclodextrin
Kf (trans) (αHL-(M113F/K147N)7 pore; −40 mV, n=4): 1.3±0.2×10^5 M^−1 | τoff of βCD (cis) (αHL-(M113F/K147N)7 pore; −60 mV, n=3, βCD from cis side): 7.0 ± 0.3 s | Kf relative to interaction of WT-αHL with βCD (αHL (M113N)7 pore [1]; 25° C.): > 10^4 fold | formation constant Kf (αHL (M113N)7 pore [1]; 25° C.): 1.5e+07 M⁻¹ | ΔG^≠ for association (αHL (M113N)7 pore [1]; 25° C. (=7.7RT)): 4.54 kcal/mol | ΔG^≠ for dissociation (αHL (M113N)7 pore [1]; 25° C. (=24RT)): 14.3 kcal/mol | association rate constant kon (αHL (M113N)7 pore [1]; 25° C.): 4.5±0.6×10^5 M^−1s^−1 | dissociation rate constant koff (αHL (M113N)7 pore [1]; 25° C.): 0.031 ± 0.01 s⁻¹ | ΔG° (αHL (M113N)7 pore [1]; 25° C., n=4): -9.8 ± 0.72 kcal/mol | mean duration of βCD binding events, τoff (αHL (M113N)7 pore [1]; 31° C., −40 mV): 14 s | ΔG^≠ for association (αHL (M113N)7 pore [1]; 85° C. (=6.1RT)): 3.59 kcal/mol | ΔG^≠ for dissociation (αHL (M113N)7 pore [1]; 85° C. (=21RT)): 12.7 kcal/mol | increase of koff over the value at 25° C. (αHL (M113N)7 pore [1]; 85° C. vs 25° C.): 800 fold | increase of kon over the value at 25° C. (αHL (M113N)7 pore [1]; 85° C. vs 25° C.): 15 fold | association rate constant kon (αHL (M113N)7 pore [1]; 85° C.): 6.5±0.8×10^6 M^−1 s^−1 | dissociation rate constant koff (αHL (M113N)7 pore [1]; 85° C.): 25.0±0.3 S^−1 | ΔH° (αHL (M113N)7 pore [1]; [3]): -14.3 ± 0.96 kcal/mol | ΔS° (αHL (M113N)7 pore [1]; [3]): −62±5 J mol^−1 K^−1 | ΔH^≠ for association (αHL (M113N)7 pore [1]; φ=1 ns^−1): 9.32 kcal/mol | ΔH^≠ for dissociation (αHL (M113N)7 pore [1]; φ=1 ns^−1): 23.7 kcal/mol | ΔS^≠ for association (αHL (M113N)7 pore [1]; φ=1 ns^−1): 66 J mol^−1 K^−1 | ΔS^≠ for dissociation (αHL (M113N)7 pore [1]; φ=1 ns^−1): 130 J mol^−1 K^−1 | formation constant Kf (literature) (αHL (M113N)7 pore [2]; literature, different sequence background for αHL, RL2): 7.7e+06 M⁻¹ | tighter binding of βCD by M113N mutant than by WT protein (αHL (M113N)7 pore [2]; room temperature): > 10,000 fold | ΔG° (as printed, second quantity of the sentence) (WT1(M113N)6 pore): −33 kJ mol^−1 K^−1 | ΔH° (WT1(M113N)6 pore): -12.2 ± 0.48 kcal/mol | ΔG° (WT1(M113N)6 pore; 25° C.): -7.89 ± 0.48 kcal/mol

Source: US7867716B2 (priority 2004, dated 2011)
